Each compound was assayed on 8 human ZIKV strains (PAN2016, R116265, PAN2015, FLR, R103451, PRVABC59, PLCal_ZV, IbH 30656). Conditions: CC50 Vero E6 / average IC50 (human strains).
Assay type: cell-based, Zika virus
Method: After removal of the unbound compounds by centrifugation (after addition of 3% PEG-6000), ZIKV was incubated with Vero E6 cells in 24-well plates at 37°C for 1 h. The cells were then washed with PBS, overlaid with DMEM containing 1% carboxymethyl cellulose and 2% FBS, and cultured at 37°C for 4–5 days, followed by being stained with 0.5% crystal violet. […] Plaques in each well were calculated, and IC50 of compounds for each compound was calculated using the CalcuSyn computer program.
`Cc1cc2c(C(C)C)c(O)c(O)c3c2c(c1-c1c(C)cc2c(C(C)C)c(O)c(O)c4c2c1OC4N)OC3N` (stereo not shown) [ST069299] showed an SI of 8.6. Work on `Cc1cc2c(C(C)C)c(O)c(O)c(/C=N/NC(=O)C(C)C)c2c(O)c1-c1c(C)cc2c(C(C)C)c(O)c(O)c(/C=N/NC(=O)C(C)C)c2c1O` [ST086273] yielded an SI of 9.2. `Cc1cc2c(C(C)C)c(O)c(O)c(/C=N/n3c(=O)[nH][nH]c3=O)c2c(O)c1-c1c(C)cc2c(C(C)C)c(O)c(O)c(/C=N/n3c(=O)[nH][nH]c3=O)c2c1O` [ST087010] was tested, and the SI was 17.1. `Cc1cc2nc[nH]c2c(/N=C/c2c(O)c(O)c(C(C)C)c3cc(C)c(-c4c(C)cc5c(C(C)C)c(O)c(O)c(/C=N/c6c(C)c(C)cc7nc[nH]c67)c5c4O)c(O)c23)c1C` [ST092971] showed an SI of 10.9.
